Some peptides are written in HELM: one residue between dots, names in brackets for other building blocks, links after the first $.
Assays:
[1] = general procedure: Fmoc solid-phase peptide synthesis; 2-Chlorotritylchloride resin (theoretical loading of 1.6 mmol/g; loading around 0.65 mmol/g); PyBOP/DIPEA; conditions: for isolated mass / isolated yield: whole synthesis; for conjugation yield: conjugation step
[2] = peptide made by a vendor (peptide synthesis; 2-Chlorotritylchloride resin (theoretical loading of 1.6 mmol/g; loading around 0.65 mmol/g); PyBOP/DIPEA); conditions: whole synthesis, HPLC / RP-UPLC-MS, scale of the general procedure 0.2 g resin
[3] = scale of the general procedure 0.2 g resin

PEPTIDE1{E.L.E.D.F}$$$$V2.0
isolated mass [1]: 59.0 mg
isolated yield [1, 3]: 59%

PEPTIDE1{D.S.D.N.D.L.S.L.E.D.F}$$$$V2.0
final HPLC purity [2]: >95%

PEPTIDE1{[FTU].D.N.D.L.E.L.E.D.F}$$$$V2.0
conjugation yield ([1]; on P9E (4.09 µmol)): 22%

PEPTIDE1{[BCN].E.D.N.D.L.E.L.E.D.F}$$$$V2.0
isolated yield ([1]; on P10EE on resin, scale 8.71 µmol): 8%
isolated mass ([1]; scale 8.71 µmol): 1.00 mg

PEPTIDE1{D.N.D.L.E.L.E.D.F}$$$$V2.0
isolated mass [1]: 27.0 mg
isolated yield [1, 3]: 17%

PEPTIDE1{[BCN].D.L.E.L.E.D.F}$$$$V2.0
isolated yield ([1]; on P7E on resin, scale 8.71 µmol): 22%
isolated mass ([1]; scale 8.71 µmol): 2.22 mg

PEPTIDE1{[FTU].D.E.D.N.D.L.E.L.E.D.F}$$$$V2.0
conjugation yield ([1]; on P11EE (3.41 µmol)): 40%

PEPTIDE1{[FTU].E.L.E.D.F}$$$$V2.0
conjugation yield ([1]; on P5E (6.53 µmol)): 53%

PEPTIDE1{[FTU].D.L.E.L.E.D.F}$$$$V2.0
conjugation yield ([1]; on P7E (5.03 µmol)): 50%

PEPTIDE1{D.E.D.N.D.L.E.L.E.D.F}$$$$V2.0
isolated mass ([1]; scale 150 mg of 2-CTC resin): 28.0 mg
isolated yield ([1]; scale 150 mg of 2-CTC resin): 20%

PEPTIDE1{D.L.E.L.E.D.F}$$$$V2.0
isolated mass [1]: 43.0 mg
isolated yield [1, 3]: 33%

PEPTIDE1{D.[pSer].D.N.D.L.[pSer].L.E.D.F}$$$$V2.0
final HPLC purity [2]: >95%

PEPTIDE1{[FTU].L.E.D.F}$$$$V2.0
conjugation yield ([1]; on P4 (7.85 µmol)): 62%

PEPTIDE1{[BCN].D.N.D.L.E.L.E.D.F}$$$$V2.0
isolated yield ([1]; on P9E on resin, scale 8.71 µmol): 10%
isolated mass ([1]; scale 8.71 µmol): 1.17 mg

PEPTIDE1{[BCN].L.E.L.E.D.F}$$$$V2.0
isolated yield ([1]; on P6E on resin, scale 8.71 µmol): 18%
isolated mass ([1]; scale 8.71 µmol): 1.60 mg

PEPTIDE1{[BCN].D.E.D.N.D.L.E.L.E.D.F}$$$$V2.0
isolated yield ([1]; on P11EE on resin, scale 8.71 µmol): 11%
isolated mass ([1]; scale 8.71 µmol): 1.01 mg

PEPTIDE1{[FTU].D.S.D.N.D.L.E.L.E.D.F}$$$$V2.0
conjugation yield ([1]; on P11SE (3.43 µmol)): 15%

BCN-NDLELEDF-OH
isolated yield ([1]; on P8E on resin, scale 8.71 µmol): 18%
isolated mass ([1]; scale 8.71 µmol): 2.00 mg

PEPTIDE1{[BCN].E.L.E.D.F}$$$$V2.0
isolated yield ([1]; on P5E on resin, scale 8.71 µmol): 32%
isolated mass ([1]; scale 8.71 µmol): 2.63 mg

PEPTIDE1{[FTU].D.S.D.N.D.L.S.L.E.D.F}$$$$V2.0
conjugation yield ([1]; on commercial P11 (3.11 µmol)): 68%

PEPTIDE1{[BCN].D.S.D.N.D.L.E.L.E.D.F}$$$$V2.0
isolated yield ([1]; on P11SE on resin, scale 4.35 µmol): 16%
isolated mass ([1]; scale 4.35 µmol): 1.12 mg
